Data on one compound can be found in ChEMBL document CHEMBL4513160, “CO-ADD screening of MMV (CH) - Small Polar Library”.

For this experiment, the system named is Pseudomonas aeruginosa. The settings on record: ATCC 27853, Concentration 300.0 ug.mL-1.

The inhibition is how much of the control response was suppressed. Lower therefore signals little suppression. Compound `NC(CF)c1ccc(F)cc1` (stereo unspecified) yielded an inhibition of 18.9%.
